Assay: PHMB uptake study
Settings: overnight soak
[1] = BBS with 5.0 ppm PHMB (control)
[2] = BBS with 5.0 ppm PHMB plus 0.02 wt. % PEG-75 lanolin (test)

Substance: poly(hexamethylene biguanide) [PHMB]
- PHMB absorbed by PureVision lenses [1]: approximately 3.055 ppm
- uptake of PHMB by PureVision lenses [1]: approximately 62%
- PHMB absorbed by PureVision lenses [2]: approximately 1.907 ppm
- uptake of PHMB by PureVision lenses [2]: approximately 38%
- difference in percent uptake of PHMB by PureVision lenses (test versus control, [62−38]/62×100): about 39%
